Results of unrelated studies side by side (data: NIAID ChemDB).

Common to all: whole-cell or culture tests; species: HIV-1; read-out: EC50

ECn: concentration that inhibits the pathogen or its effect by n%.

structure	strain or isolate	mutations	cells	method	conditions	value
Cc1ccoc1C(=O)N1CCN(C(=O)C(=O)c2c[nH]c3cccc(F)c23)CC1	-	-	HeLa + HELA CD4+/CCR5	luciferase	-	<10 µM
COc1ccc(-n2cnc3c(N4CC[C@@H](NC(C)=O)C4)nc(C)nc32)cc1OC	-	-	H9	p24	-	1 µM
Cc1nc2ccccc2c(-c2ccc(Cl)cc2)c1[C@H](OC(C)(C)C)C(=O)O	-	-	C8166	luciferase / reporter gene	-	<20 µM
Cc1ccc(Cn2cc(Cc3ccccc3F)cc(/C(O)=C/C(=O)C(=O)O)c2=O)cc1	-	-	MAGI	-	-	0.7 µM
COc1ccc(-c2c(C)nc3c(N4CC[C@@H](NC(=O)[C@@H](OC)c5ccccc5)C4)cc(C)nn23)cc1OC	-	-	H9	p24	-	0.4 µM
CS(=O)(=O)/N=C(\c1ccccc1)N1CCN(C(=O)C(=O)c2c[nH]c3cccc(F)c23)CC1	Luciferase reporter virus	-	HeLa(CD4+) + HeLa	luciferase	-	<0.5 µM
O=C(O)C(=O)/C=C(\O)c1cc(Cc2ccccc2)cn(Cc2ccc(F)c(Cl)c2F)c1=O	-	-	MAGI	-	-	0.6 µM
Nc1c(C(=O)NCc2ccc(F)cc2F)c(=O)n(O)c2ncc(CCS(=O)(=O)c3ccccc3)cc12	-	+G insertion (GGGGAGT)	HOS	luciferase	-	<0.001 µM
CCO[C@H](C(=O)O)c1c(C)nc2ccc(Cl)cc2c1-c1ccc(CC)cc1	-	-	C8166	luciferase / reporter gene	-	<20 µM
CCc1ncc(N(C)C(=O)[C@H](Cc2cc(F)cc(F)c2)NC(=O)CN2c3ccccc3N(CC(=O)N[C@@H](Cc3cc(F)cc(F)c3)C(=O)N(C)c3cnc(CC)nc3)S2(=O)=O)cn1	NL4-3	-	MT-2	luciferase	-	0.18 µM
CC(C)CN(C[C@@H](O)[C@H](Cc1ccccc1)NC(=O)O[C@H]1CO[C@H]2OCC[C@H]21)S(=O)(=O)c1ccc2c(c1)OCO2	ERS104pre	-	PHA-PBM	p24	-	0.0005 µM
COc1ccc(-c2c(C)nc3c(N4CC[C@@H](NS(=O)(=O)C5CC5)C4)cc(C)nn23)cc1OC	-	-	H9	p24	-	0.1 µM
COc1ccc(N(C)C(=O)[C@H](Cc2ccccc2)NC(=O)c2ccccc2C(=O)N[C@@H](Cc2ccccc2)C(=O)N(C)c2ccc(OC)cc2)cc1	NL4-3	-	MT-2	luciferase	-	0.9 µM
O=C(O)C(=O)/C=C(\O)c1cc(Cc2ccccc2)cn(Cc2ccc(F)cc2)c1=O	-	-	MAGI	-	-	1 µM
COc1ccc(-c2c(C)nc3c(N4CC[C@@H](F)C4)cc(C)nn23)cc1OC	-	-	H9	p24	-	0.7 µM
Cc1cc(S(N)(=O)=O)ccc1NC(=O)COc1ccc(Cl)cc1C(=O)c1cc(F)cc(F)c1	HXB2	RT-L100I	HeLa + HELA CD4+	β-galactosidase	-	<0.01 µM
CCCc1cc(=O)oc2c3c(c4c(c12)OC(C)(C)CC4)O[C@H](C)[C@@H](C)C3=O	-	RT-M184I	-	cytopathic effect / XTT	-	6.47 µM
CCCOC(C(=O)O)c1c(C)nc2ccc(Br)cc2c1-c1ccc(Cl)cc1	-	-	C8166	luciferase / reporter gene	-	<20 µM
CC(=O)N[C@@H]1CCN(c2cc(C)nn3cc(C)nc23)C1	-	-	H9	p24	-	8 µM
O=C(C(=O)N1CCN(C(=O)c2cnccn2)CC1)c1c[nH]c2cccc(Cl)c12	-	-	HeLa + HELA CD4+/CCR5	luciferase	-	<10 µM
Cc1cc(C#N)cc(C(=O)c2cc(Cl)ccc2OCC(=O)Nc2cnc(S(N)(=O)=O)cc2C)c1	HXB2	RT-V106I	HeLa + HELA CD4+	β-galactosidase	-	<0.01 µM
Cc1ccc(-c2ccc3c(c2)C=C(C(=O)Nc2ccc(C[N+](C)(C)C4CCOCC4)cc2)CCC3)cc1	TB7 CLADE C	-	PBMC	p24	-	<1 µM
COc1cnc(-n2ccnn2)c2[nH]cc(C(=O)C(=O)N3CCN(C(=N)c4ccccc4)CC3)c12	Luciferase reporter virus	-	HeLa(CD4+) + HeLa	luciferase	-	<0.5 µM
O=C(COc1ccc(Cl)cc1C(=O)c1ccco1)Nc1ccc2cn[nH]c2c1	HXB2	RT-Y181C	HeLa + HELA CD4+	β-galactosidase	-	0.011–0.1 µM
Clc1cc(CN2CCCNCCNCCCNCC2)cc(Cl)n1	NL4-3 X4	-	HOS-CD4-CCR5 + HOS	p24	-	6.9 µM
CC1CC(C)CN(S(=O)(=O)c2ccccc2[N+](=O)[O-])C1	4755-5	-	HeLa	GFP / fluorescence	-	0.31 µM
COc1ccnc2[nH]cc(C(=O)C(=O)N3C4CC3CN(C(=O)c3ccccc3)C4)c12	PVO	-	TZM-bl	luciferase	-	175 µM
N#CN=C(c1ccccn1)N1CCN(C(=O)C(=O)c2c[nH]c3c(-n4ccnn4)ncc(F)c23)CC1	Luciferase reporter virus	-	HeLa(CD4+) + HeLa	luciferase	-	<0.5 µM
N#CC1=CC2Nc3ccccc3C2N(c2ccc([N+](=O)[O-])cc2)C1=O	6463-13	-	HeLa	GFP / fluorescence	-	0.89 µM
CN(C(=O)[C@H](Cc1cc(F)cc(F)c1)NC(=O)c1ccc(F)c(C(=O)N[C@@H](Cc2cc(F)cc(F)c2)C(=O)N(C)c2ccc3snnc3c2)c1)c1ccc2snnc2c1	NL4-3	-	MT-2	luciferase	-	0.34 µM
CCc1ccc(-c2c([C@H](OC(C)C)C(=O)O)c(C)nc3ccc(Cl)cc23)cc1	-	-	C8166	luciferase / reporter gene	-	<20 µM
CCc1cccc2c(C(=O)C(=O)N3CCN(C(=O)c4ccccc4)C[C@H]3C)c[nH]c12	-	-	HeLa + HELA CD4+/CCR5	luciferase	-	<10 µM
Nc1c(C(=O)NCc2ccc(F)cc2F)c(=O)n(O)c2ncc(CCS(=O)(=O)CCN3CCOCC3)cc12	-	AGT (GGGAGT)	HOS	luciferase	-	0.605 µM
C[C@@H]1CN(C(=NC#N)c2ccccc2)CCN1C(=O)C(=O)c1c[nH]c2c(-n3ccnn3)ncc(F)c12	Luciferase reporter virus	-	HeLa(CD4+) + HeLa	luciferase	-	<0.5 µM
Nc1c(C(=O)NCc2ccc(F)cc2F)c(=O)n(O)c2ncc(CCCCCO)cc12	-	+G insertion (GGGGAGT)	HOS	luciferase	-	0.0028 µM
Nc1ccccc1C(=O)N1CCN(C(=O)C(=O)c2c[nH]c3cccc(Cl)c23)CC1	-	-	HeLa + HELA CD4+/CCR5	luciferase	-	<10 µM
C[C@@H]1CCO[C@H]2Cn3cc(C(=O)NCc4ccc(F)cc4F)c(=O)c(O)c3C(=O)N12	-	AGT (GGGAGT)	HOS	luciferase	-	<0.001 µM
O=C(C(=O)N1CCN(C(=NCCOCCO)c2ccccc2)CC1)c1c[nH]c2c(-n3ccnn3)ncc(F)c12	Luciferase reporter virus	-	HeLa(CD4+) + HeLa	luciferase	-	<0.5 µM
O=C(C(=O)N1CCN(C(=O)c2ccccc2)CC1)c1c[nH]c2cc(F)c(Br)c(F)c12	-	-	HeLa + HELA CD4+/CCR5	luciferase	-	<10 µM
Cc1cc2[nH]cnc2cc1NC(=O)COc1ccc(Cl)cc1C(=O)c1cc(F)cc(C(F)(F)F)c1	HXB2	RT-Y181C	HeLa + HELA CD4+	β-galactosidase	-	<0.01 µM
COc1ncc(OC)c2c(C(=O)C(=O)N3CCC(=C(c4ccccc4)c4cccc(F)c4)CC3)c[nH]c12	-	-	HeLa	luciferase	-	<1 µM
COC(=O)c1cccc2c(C(=O)C(=O)N3CCN(C(=O)c4ccc(Br)o4)C[C@H]3C)c[nH]c12	-	-	HeLa + HELA CD4+/CCR5	luciferase	-	<10 µM
CC(C)N=C(c1ccccc1)N1CCN(C(=O)C(=O)c2c[nH]c3c(-n4ccnn4)ncc(F)c23)CC1	Luciferase reporter virus	-	HeLa(CD4+) + HeLa	luciferase	-	<0.5 µM
Cc1ccc(-c2ccc(NC(=O)N3CCC4(CCO4)CC3)cc2)cc1	-	-	TZM-bl	luminescence	pseudotyped	>30 µM
Cc1cc(COC(C(=O)O)c2c(C)nc3ccc(Br)cc3c2-c2ccc(Cl)cc2)no1	-	-	C8166	luciferase / reporter gene	-	<20 µM
COc1cc2c(cc1Cc1cccc(Cl)c1F)c(=O)c(C(=O)O)cn2[C@H](CO)C(C)C	NL4-3	G118R/E138K	PM1	RT activity	-	0.0025 µM
Cc1cc(S(N)(=O)=O)ccc1NC(=O)COc1ccc(Cl)cc1C(=O)c1cccc(C#N)n1	HXB2	RT-V108I Y181C	HeLa + HELA CD4+	β-galactosidase	-	<0.01 µM
O=C(C(=O)N1CCN(C(=NC2CCC2)c2ccccc2)CC1)c1c[nH]c2c(-n3ccnn3)ncc(F)c12	Luciferase reporter virus	-	HeLa(CD4+) + HeLa	luciferase	-	<0.5 µM
OCCC#Cc1nc(-c2ccc(F)cc2)c(-c2ccncc2)n1CCCc1ccccc1	BaL	-	Jurkat cells	p24	-	>1 µM
COc1ccnc2[nH]cc(C(=O)C(=O)N3C4CCC3CN(C(=O)c3ccccc3)C4)c12	SF162	-	TZM-bl	luciferase	-	0.36 µM
COc1cnc(-n2cnc(C)n2)c2[nH]cc(C(=O)C(=O)N3CCC(=C(c4ccccc4)c4nnc(-c5ccccc5)o4)CC3)c12	-	-	HeLa	luciferase	-	>0.5 µM
CC(C)=CCOc1cc(NC(=S)c2ccoc2C)ccc1Cl	NL4-3	RT-L74V	CEM + CEM-SS	p24	-	0.006 µM
COc1cnc(-n2ccnn2)c2[nH]cc(C(=O)C(=O)N3CCC(=C(c4ccccc4)c4nnc(C5CC5)o4)CC3)c12	-	-	HeLa	luciferase	-	<1 µM
COc1ccc(N(C)C(=O)[C@H](Cc2ccccc2)NC(=O)c2ccc(C(=O)N[C@@H](Cc3ccccc3)C(=O)N(C)c3ccc(OC)cc3)s2)cc1	NL4-3	-	MT-2	luciferase	-	0.61 µM
COc1ncc(OC)c2c(C(=O)C(=O)N3CCC(=C(C#N)c4ccsc4)CC3)c[nH]c12	-	-	HeLa	luciferase	-	<1 µM
CC1(C)OB(c2ccc(NC(=O)/N=C(\c3ccccc3)N3CCN(C(=O)C(=O)c4c[nH]c5cccc(F)c45)CC3)cc2)OC1(C)C	Luciferase reporter virus	-	HeLa(CD4+) + HeLa	luciferase	-	>0.5 µM
C=CCC(C(=O)O)c1c(-c2ccc(Cl)cc2)c2cc(Br)ccc2[nH]c1=O	-	-	C8166	luciferase / reporter gene	-	<20 µM
C[C@H](Cn1cnc2c(N)ncnc21)OCP(=O)(O)O	-	HX	TZM-bl	-	-	3 µM
COC[C@@H](c1ccc(C(F)(F)F)cc1)N1CCN(C2(C)CCN(C(=O)c3c(C)ncnc3C)CC2)C[C@@H]1C	R14/S	V535M	TZM-bl	-	-	0.03 µM
CC1CN(C(=O)C(=O)c2c[nH]c3cccc(F)c23)CCN1C(=O)c1ccccc1	-	-	HeLa + HELA CD4+/CCR5	luciferase	-	<10 µM
C=CCCN(C(=O)[C@H](Cc1cc(F)cc(F)c1)NS(=O)(=O)NC(=O)N[C@@H](Cc1cc(F)cc(F)c1)C(=O)N(CC=C)c1ccc(OC)cc1)c1ccc(OC)cc1	NL4-3	-	MT-2	luciferase	-	0.38 µM
CCOC(=O)c1ccc(-c2ncc(OC)c3c(C(=O)C(=O)N4CCC(=C(C#N)c5ccccc5)CC4)c[nH]c23)cc1	-	-	HeLa	luciferase	-	<1 µM
Cc1cccc(Cn2cc(Cc3ccccc3F)cc(/C(O)=C/C(=O)C(=O)O)c2=O)c1	-	-	MAGI	-	-	0.9 µM
C[C@@H]1CN(C(=O)c2cccc(N)c2)CCN1C(=O)C(=O)c1c[nH]c2cccc(F)c12	-	-	HeLa + HELA CD4+/CCR5	luciferase	-	<10 µM
CCc1ccc(-c2c(C(OC(C)(C)C)C(=O)O)c(C)nc3ccc(Cl)cc23)cc1	-	-	C8166	luciferase / reporter gene	-	<20 µM
Cc1cc(C#N)cc(C(=O)c2cc(Cl)ccc2OCC(=O)Nc2ccc(S(N)(=O)=O)nc2C)c1	HXB2	RT-G190A	HeLa + HELA CD4+	β-galactosidase	-	<0.01 µM
O=C(C(=O)N1CCN(C(=NCCN2CCOCC2)c2ccccc2)CC1)c1c[nH]c2cccc(F)c12	Luciferase reporter virus	-	HeLa(CD4+) + HeLa	luciferase	-	>0.5 µM
COc1cnc(-c2ccc(S(C)(=O)=O)cc2)c2[nH]cc(C(=O)C(=O)N3CCC(=C(C#N)c4ccccn4)CC3)c12	-	-	HeLa	luciferase	-	<1 µM
Cc1ccnc2c1NC(=O)c1cccnc1N2C1CC1	94ug114.1.6	N348I	HEK293T	luciferase	-	584.9 nM
Cc1cc(S(N)(=O)=O)ccc1NC(=O)COc1ccc(Cl)cc1C(=O)c1cc(Cl)cc(C#N)c1	HXB2	RT-G190A	HeLa + HELA CD4+	β-galactosidase	-	<0.01 µM
O=C(O)C(=O)/C=C(\O)c1cc(Cc2ccccc2)cn(Cc2cc(Cl)ccc2F)c1=O	-	-	MAGI	-	-	0.9 µM

The last 8 rows once more:

structure | strain or isolate | mutations | cells | method | conditions | value
C[C@@H]1CN(C(=O)c2cccc(N)c2)CCN1C(=O)C(=O)c1c[nH]c2cccc(F)c12 | - | - | HeLa + HELA CD4+/CCR5 | luciferase | - | <10 µM
CCc1ccc(-c2c(C(OC(C)(C)C)C(=O)O)c(C)nc3ccc(Cl)cc23)cc1 | - | - | C8166 | luciferase / reporter gene | - | <20 µM
Cc1cc(C#N)cc(C(=O)c2cc(Cl)ccc2OCC(=O)Nc2ccc(S(N)(=O)=O)nc2C)c1 | HXB2 | RT-G190A | HeLa + HELA CD4+ | β-galactosidase | - | <0.01 µM
O=C(C(=O)N1CCN(C(=NCCN2CCOCC2)c2ccccc2)CC1)c1c[nH]c2cccc(F)c12 | Luciferase reporter virus | - | HeLa(CD4+) + HeLa | luciferase | - | >0.5 µM
COc1cnc(-c2ccc(S(C)(=O)=O)cc2)c2[nH]cc(C(=O)C(=O)N3CCC(=C(C#N)c4ccccn4)CC3)c12 | - | - | HeLa | luciferase | - | <1 µM
Cc1ccnc2c1NC(=O)c1cccnc1N2C1CC1 | 94ug114.1.6 | N348I | HEK293T | luciferase | - | 584.9 nM
Cc1cc(S(N)(=O)=O)ccc1NC(=O)COc1ccc(Cl)cc1C(=O)c1cc(Cl)cc(C#N)c1 | HXB2 | RT-G190A | HeLa + HELA CD4+ | β-galactosidase | - | <0.01 µM
O=C(O)C(=O)/C=C(\O)c1cc(Cc2ccccc2)cn(Cc2cc(Cl)ccc2F)c1=O | - | - | MAGI | - | - | 0.9 µM

Lines come from different laboratories, so protocols vary. Two numbers with a dash give a range or band. An empty or dashed field is not shown.